Data taken from PubChem BioAssay AID504720 (Sanford-Burnham Center for Chemical Genomics, 2011).
Only a part is listed here, and it is no random draw. Calls of active or inactive are those of the source. No stated cut-off is given here; in the data, active means activation above about 50%; inactive means the rest.

Protein sequences, listed by entry. Tags and fused reporters are not part of them. Lines headed by an entry give the natural chain unless they say otherwise; changes in a name come on top.
UniProt P0AE70: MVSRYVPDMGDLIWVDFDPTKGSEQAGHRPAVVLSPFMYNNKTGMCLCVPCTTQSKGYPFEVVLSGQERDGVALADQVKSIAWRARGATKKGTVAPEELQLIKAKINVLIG

Biological target: Endoribonuclease toxin MazF (Escherichia coli (strain K12)) (UniProt P0AE70)
Experiment: activators of E. coli MazEF toxin-antitoxin RNase, primary screen, biochemical, fluorescence, uHTS (AID 504720)
Conditions: FAM/BHQ RNA-DNA oligo cleavage fluorescence, 5 h, at 20 µM, stronger effect = higher value

| SMILES | activation |
| --- | --- |
| CCN(/C(=N/P(=O)(N1CCOCC1)N1CCOCC1)N1CCOCC1)c1ccc(OC)cc1 | inactive: 6.07% |
| C[N+]1=C2C=CC=CC=C2SC12C([N+](=O)[O-])=CC([N+](=O)[O-])=C[C-]2[N+](=O)[O-] (stereo not given) | inactive: 5.92% |
| Nc1ccc([As](=O)(O)c2ccc(N)cc2)cc1 | inactive: -0.374% |
| c1cc(-c2nn[nH]n2)ccc1-c1nn[nH]n1 | inactive: 1.05% |
| CC1CCN(C(=O)Oc2c(Cl)cc(Cl)c3cccnc23)CC1 | inactive: -1.75% |
| CN(C)C(=O)OCCc1n(C)cc[n+]1C | inactive: 4.8% |
| CC(C)=N/N=C(\N)N[N+](=O)[O-] | inactive: 2.48% |
| CC(C)c1nc(Nc2ccccc2)n(P(=O)(N(C)C)N(C)C)n1 | inactive: -0.14% |
| COc1ccc(C2=NCC(CBr)S2)cc1 (stereo not given) | inactive: 17.4% |
| CCc1nc2c(n1)c1c(non1O)c1c2no[n+]1[O-] | inactive: 5.78% |
| O=[N+]([O-])c1cc([N+](=O)[O-])c(CCNc2ccccc2)c([N+](=O)[O-])c1 | inactive: 2.13% |
| Cc1ccc(NP(=O)(Oc2ccccc2)Oc2ccccc2)nc1 | inactive: 14.3% |
| O=[N+]([O-])c1cccc2n[nH]nc12 | inactive: -3.38% |
| CC(=O)N1C2C3N(C(C)=O)C1C1N(C(C)=O)C(C(N1C(C)=O)N3C(C)=O)N2C(C)=O | inactive: 4% |
| O=[N+]([O-])c1ncn(CCn2ncnc2[N+](=O)[O-])n1 | inactive: 8.29% |
| CC(C)(C)C(=O)NC(Sc1ccncn1)C(Cl)(Cl)Cl (stereo not given) | inactive: -18.8% |
| O=C(O)CNc1ccc([As](=O)(O)O)cc1 | inactive: 7.28% |
| O=[N+]([O-])c1cccc(NC2=NCC(CBr)S2)c1 (stereo not given) | inactive: 7.87% |
| COC(=O)C1(C)COP(=O)(Nc2ccccc2)OC1 (stereo not given) | inactive: 8.15% |
| O=P1(N(CCCl)CCCl)OCCCS1 (stereo not given) | inactive: 3.8% |
| O=C(Nc1cc([As](=O)(O)O)ccc1O)c1ccccc1 | inactive: 4.52% |
| Nc1cccc2ccc([As](=O)(O)O)cc12 | inactive: -1.1% |

| SMILES | activation |
| --- | --- |
| CCN(N=Nc1nonc1N)c1nonc1N | inactive: 6.23% |
| CN(C)P(=O)(N(C)C)n1c(Nc2ccccc2)nnc1-c1ccccc1 | inactive: -0.202% |
| O=P(Nc1nc2ccc(Cl)cc2s1)(c1ccccc1)c1ccccc1 | inactive: 1.97% |
| CCCC1OP(N)(=O)OCC1CC (stereo not given) | inactive: 3.38% |
| O=C(O)c1ccccc1[As](=O)(O)O | inactive: 8.09% |
| CC(=O)Nc1ccc([As](=O)(O)O)cc1 | inactive: 6.84% |
| Cc1ccc(NP(=O)(Oc2ccccc2F)Oc2ccccc2F)nc1 | inactive: 10.3% |
| CN(C(=O)Cc1ccc(Cl)c(Cl)c1)[C@H]1CCCC[C@@H]1N1CCCC1 | inactive: 8.78% |
| CCOP(=O)(Nc1ccccc1)OCC | inactive: 2.85% |
| Cc1cc(SC(NC(=O)c2ccc(F)cc2)C(Cl)(Cl)Cl)ncn1 (stereo not given) | inactive: 5.53% |
| O=C(NC(Sc1ccncn1)C(Cl)(Cl)Cl)c1ccccc1 (stereo not given) | inactive: -0.758% |
| Oc1ccccc1CNc1ccccn1 | inactive: 2.89% |
| CC(C)CC(=O)NC(Sc1ccc(Cl)cc1)C(Cl)(Cl)Cl (stereo not given) | inactive: -1.73% |
| Nc1cc(N)c2nonc2c1[N+](=O)[O-] | inactive: -11.7% |
| Cc1ccc(N/C(=N/P(=O)(N2CCOCC2)N2CCOCC2)N2CCOCC2)cc1 | inactive: -0.993% |
| CN(C(=O)Cc1ccc(Cl)c(Cl)c1)[C@H]1CCCC[C@H]1N1CCCC1 | inactive: 0.681% |
| NC(=O)c1cc([N+](=O)[O-])cc([N+](=O)[O-])c1N | inactive: 9.13% |
| Clc1ccc(Cl)c(NC2=NCC(CBr)S2)c1 (stereo not given) | inactive: 5.36% |
| CN1CCCC(OC(=O)C(c2ccccc2)c2ccccc2)C1 (stereo not given) | inactive: -19.7% |
| Cc1ccc(OP(=O)(Nc2nccs2)Oc2ccc(C)cc2)cc1 | inactive: -7.69% |
| COc1ccccc1OP(=O)(Nc1ccc(C)cn1)Oc1ccccc1OC | inactive: -3.43% |
| C[C@@H]1C=CCP(=O)(Oc2ccccc2)O1 (stereo not given in full) | inactive: 4.72% |

| SMILES | activation |
| --- | --- |
| C[C@H]1OP(=O)(Oc2ccccc2)C[C@@H]2O[C@@H]21 (stereo not given in full) | inactive: 5% |
| Cc1ccccc1CN(C)C(=O)COC(=O)C(O)(c1ccccc1)c1ccccc1 | inactive: 3.77% |
| COC(=O)C1(C)COP(=O)(NCc2ccccc2)OC1 (stereo not given) | inactive: 11.1% |
| N#C/C(=C\c1ccc(N(CCBr)CCBr)cc1)C(N)=O | inactive: 11.9% |
| CC(=O)c1ccc(N2CC2c2ccncc2)cc1 (stereo not given) | inactive: -0.94% |
| CC(=O)Nc1ccc(Oc2c([N+](=O)[O-])cc([N+](=O)[O-])cc2[N+](=O)[O-])cc1 | inactive: 7.28% |
| CC(=O)Nc1ccc([As](=O)(O)O)c(O)c1 | inactive: -2.73% |
| CCOc1ccc(C2=NCC(CBr)S2)cc1 (stereo not given) | inactive: 1.02% |
| O=P1(Nc2nc3ccc(Cl)cc3s2)COc2ccccc2O1 (stereo not given) | inactive: 3.3% |
| CC(C)(C)C(=O)NC(Sc1ccccc1)C(Cl)(Cl)Cl (stereo not given) | inactive: -3.56% |
| CCc1cc(O)c([N+](=O)[O-])c(C)c1[N+](=O)[O-] | inactive: 8.28% |
| CCC(=O)N1C2C3N(C(=O)CC)C1C1N(C(=O)CC)C(C(N1C(=O)CC)N3C(=O)CC)N2C(=O)CC | inactive: 4.72% |
| O=C(OC1CN2CCC1CC2)c1ccccc1 (stereo not given) | inactive: 0.38% |
| Cc1ccc(OP(=O)(Nc2ccccn2)Oc2ccc(C)cc2)cc1 | inactive: 1.44% |
| CC(=O)NC(SC(=S)N(CC(C)C)CC(C)C)C(Cl)(Cl)Cl (stereo not given) | inactive: 0.68% |
| COC(=O)c1cc2c(s1)N=C(c1ccccc1)N(C)P2(=O)N1CCOCC1 (stereo not given) | inactive: -4.1% |
| CN(C)C(=O)Oc1noc2ccccc12 | inactive: 2.78% |
| O=c1c2cc([N+](=O)[O-])ccc2[nH]c2c([N+](=O)[O-])cc([N+](=O)[O-])cc12 | inactive: 0.83% |
| Cc1ccccc1OP(=O)(Nc1ccccn1)Oc1ccccc1C | inactive: 2.03% |
| CC(NC(=O)COC(=O)C(O)(c1ccccc1)c1ccccc1)c1ccccc1 (stereo not given) | inactive: 2.18% |
| Cc1ccc(NP(=O)(Oc2cccc(C)c2)Oc2cccc(C)c2)nc1 | inactive: 4.26% |
